Molecular target: A/California/07/2009 H1 haemagglutinin (influenza A virus A/California/07/2009 …, UniProt C3W5X2)
Experiment: BLI
Conditions: both partners purified

B1: H2214 monoclonal antibody (antibody, V domains shown)
VH: EVQLLESGGGLVQPGGSLRLSCAASGFTFNHYAMTWVRQAPGKGLEWVASSSGSGRSTYYTDSVKGRFSVSRDNSKNTLYLQMNSLRAEDTAVYYCAKSSNYYGSGSYSPDDYYHMDVWGQGTTVTVSG
VL: EIVMTQSPDTLSVSPGERATLSCRASESISSNLAWYQQKPGQVPRLLIYGASTRATGVPARFTGSGSGTEFTLTISSLQSEDFAVYYCQQYNNRLPYTFGQGTKLEIK
**Q.** Does B1 bind?
**A.** binds

B2: FluA-20 monoclonal antibody (antibody, V domains shown)
VH: QVQLEESGPGLVKPSETLSLTCSVSGVSVTSDIYYWTWIRQPPGKGLEWIGYIFYNGDTNYNPSLKSRVTMSIDTSKNEFSLRLTSVTAADTAVYFCARGTEDLGYCSSGSCPNHWGQGTLVTVSS
VL: DIVMTQSPSSLSASIGDRVTITCRPSQNIRSFLNWFQHKPGKAPKLLIYAASNLQSGVPSRFSGSGSGTEFTLTIRSLQPEDFATYYCQQSYNTPPTFGQGTKVEIK
**Q.** Does B2 bind?
**A.** binds

From article PMC11807745 (The Lancet. Microbe, 2024)
